Results of unrelated studies side by side (data: NIAID ChemDB).

Shared fields: tests in culture; agent: Mycobacterium avium complex; read-out: MIC

Neighbouring rows are from separate reports.

compound,strain,result
CNC1CCN(c2c(F)cc3c(=O)c(C(=O)O)cn(C4CC4)c3c2F)C1,1915112,4 µg/mL
CCCCCSc1nc2ccccc2[nH]1,MY330/88,62 µM
CC1CCN(c2c(F)cc3c(=O)c(C(=O)O)cn(C4CC4)c3c2F)C1,1915112,4 µg/mL
CC[C@@H](CO)NCCN[C@@H](CC)CO,1168,16 µg/mL
NCCC[C@H](N)CC(=O)N[C@H]1CNC(=O)[C@H]([C@H]2C[C@H](O)NC(N)=N2)NC(=O)/C(=C/NC(N)=O)NC(=O)[C@H](CO)NC(=O)[C@H](CO)NC1=O,TMC 1411,1.56 µg/mL
CC(C)N=c1cc2n(-c3ccc(Cl)cc3)c3ccccc3nc-2cc1Nc1ccc(Cl)cc1,1295/HIV-,0.12 µg/mL
NCCC(O)C(N)CC(=O)NC1CNC(=O)C(C2CCN=C(N)N2)NC(=O)/C(=C/NC(N)=O)NC(=O)C(CO)NC(=O)C(CO)NC1=O,TMC 1411,1.56 µg/mL
NNC(=O)c1ccncc1,1056,4 µg/mL
CC[C@H]1OC(=O)[C@H](C)[C@@H](O[C@H]2C[C@@](C)(OC)[C@@H](O)[C@H](C)O2)[C@H](C)[C@@H](O[C@@H]2O[C@H](C)C[C@H](N(C)C)[C@H]2O)[C@](C)(O)C[C@@H](C)C(=O)[C@H](C)[C@@H](O)[C@]1(C)O,3213,64 µg/mL
CCn1cc(C(=O)O)c(=O)c2cc(F)c(N3CCNCC3)cc21,CIPT 140310030,20 µg/mL
O=[N+]([O-])c1cccc(CSc2nc3ccccc3[nH]2)c1,MY330/88,>62 µM
O=C(O)c1cn(C2CC2)c2c(F)c(N3CC4CC3CN4)c(F)cc2c1=O,1915112,8 µg/mL
CCn1cc(C(=O)O)c(=O)c2cc(F)c(N3CCNCC3)nc21,Isolate 861589,>30 µg/mL
O=[N+]([O-])c1ccc(CSc2nc3ccccc3[nH]2)c([N+](=O)[O-])c1,MY330/88,16 µM
NCC1CCN(c2c(F)cc3c(=O)c(C(=O)O)cn(C4CC4)c3c2F)C1,PI12/39,2 µg/mL
CN[C@@H]1[C@H](O[C@H]2[C@H](O[C@H]3[C@H](O)[C@@H](O)[C@H](N=C(N)N)[C@@H](O)[C@@H]3N=C(N)N)O[C@@H](C)[C@]2(O)C=O)O[C@@H](CO)[C@H](O)[C@H]1O,13008 (serotype 20),1.6 µg/mL
CN(C)c1c(F)c(N2CCC(N(C)C)C2)c(F)c2c1c(=O)c(C(=O)O)cn2C1CC1,1915112,32 µg/mL
NCCC(O)C(N)CC(=O)NC1CNC(=O)C(C2CCN=C(N)N2)NC(=O)/C(=C/NC(N)=O)NC(=O)C(CO)NC(=O)C(CO)NC1=O,13011 (serotype 16),25 µg/mL
CO[C@H]1/C=C/O[C@@]2(C)Oc3c(C)c(O)c4c(O)c(c(/C=N/N5CCN(C)CC5)c(O)c4c3C2=O)NC(=O)/C(C)=C\C=C\[C@H](C)[C@H](O)[C@@H](C)[C@@H](O)[C@@H](C)[C@H](OC(C)=O)[C@@H]1C,551/HIV+,8 µg/mL
Cc1ccc(CSc2nc3ccccc3[nH]2)cc1,MY330/88,32 µM
NC[C@@H]1O[C@H](O[C@H]2[C@@H](O)[C@H](O[C@@H]3[C@@H](O)[C@H](N)C[C@H](N)[C@H]3O[C@H]3O[C@H](CO)[C@@H](O)C[C@H]3N)O[C@@H]2CO)[C@H](N)[C@@H](O)[C@@H]1O[C@H]1O[C@H](CO)[C@@H](O)[C@H](O)[C@@H]1O,Isolate 122,50 µg/mL
CC(C)N=c1cc2n(-c3ccc(Cl)cc3)c3ccccc3nc-2cc1Nc1ccc(Cl)cc1,LR25/HIV+,<0.12 µg/mL
CO[C@H]1/C=C/O[C@@]2(C)Oc3c(C)c(O)c4c(O)c(c(/C=N/N5CCN(C/C=C/c6ccccc6)CC5)c(O)c4c3C2=O)NC(=O)/C(C)=C\C=C\[C@H](C)[C@H](O)[C@@H](C)[C@@H](O)[C@@H](C)[C@H](OC(C)=O)[C@@H]1C,CH3,0.25 µg/mL
CC(C)Sc1nc2ccccc2[nH]1,MY330/88,>500 µM
NC1CCCCN(c2c(F)cc3c(=O)c(C(=O)O)cn(C4CC4)c3c2F)C1=O,1988557,32 µg/mL
c1ccc(CCSc2nc3ccccc3[nH]2)cc1,MY330/88,>62 µM
CO[C@H]1/C=C/O[C@@]2(C)Oc3c(C)c(O)c4c(O)c(c5c(c4c3C2=O)NC2(CCN(CC(C)C)CC2)N=5)=NC(=O)/C(C)=C\C=C\[C@H](C)[C@H](O)[C@@H](C)[C@@H](O)[C@@H](C)[C@H](OC(C)=O)[C@@H]1C,921-5,2 µg/mL
NC[C@H]1O[C@H](O[C@H]2[C@H](O)[C@@H](O[C@H]3O[C@H](CO)[C@@H](O)[C@H](N)[C@H]3O)[C@H](N)C[C@@H]2N)[C@H](O)[C@@H](O)[C@@H]1O,Isolate 93,25 µg/mL
NCC[C@H](O)C(=O)N[C@@H]1C[C@H](N)[C@@H](O[C@H]2O[C@H](CN)[C@@H](O)[C@H](O)[C@H]2O)[C@H](O)[C@H]1O[C@H]1O[C@H](CO)[C@@H](O)[C@H](N)[C@H]1O,3218,32 µg/mL
CC1CN(c2c(F)cc3c(=O)c(C(=O)O)cn(C4CC4)c3c2F)CCN1,1172733,1 µg/mL
NC[C@H]1O[C@H](O[C@H]2[C@H](O)[C@@H](O[C@H]3O[C@H](CO)[C@@H](O)[C@H](N)[C@H]3O)[C@H](N)C[C@@H]2N)[C@H](O)[C@@H](O)[C@@H]1O,ATCC 13950,25 µg/mL
CC[C@@H](CO)NCCN[C@@H](CC)CO,3211,32 µg/mL
NC[C@@H]1O[C@H](O[C@H]2[C@@H](O)[C@H](O[C@@H]3[C@@H](O)[C@H](N)C[C@H](N)[C@H]3O[C@H]3O[C@H](CO)[C@@H](O)[C@H](O)[C@H]3N)O[C@@H]2CO)[C@H](N)[C@@H](O)[C@@H]1O,Isolate 64,3.13 µg/mL
NC[C@H]1O[C@H](O[C@H]2[C@H](O)[C@@H](O[C@H]3O[C@H](CO)[C@@H](O)[C@H](N)[C@H]3O)[C@H](N)C[C@@H]2N)[C@H](O)[C@@H](O)[C@@H]1O,N-978 (HIV+),4 µg/mL
NC[C@H]1O[C@H](O[C@H]2[C@H](O[C@@H]3O[C@H](CO)[C@@H](O)[C@H]3O)[C@@H](O)[C@H](N)C[C@@H]2N)[C@H](N)[C@@H](O)[C@@H]1O,Isolate 135,25 µg/mL
CC1CN(c2c(F)cc3c(=O)c(C(=O)O)cn(C4CC4)c3c2F)CC(C)N1,1915112,2 µg/mL
CO/N=C(\C(=O)N[C@@H]1C(=O)N2C(C(=O)O)=C(COC(C)=O)CS[C@H]12)c1csc(N)n1,T11,0.78 µg/mL
O=[N+]([O-])c1ccccc1CSc1nc2ccccc2[nH]1,MY330/88,250 µM
NC[C@@H]1O[C@H](O[C@H]2[C@@H](O)[C@H](O[C@@H]3[C@@H](O)[C@H](N)C[C@H](N)[C@H]3O[C@H]3O[C@H](CO)[C@@H](O)[C@H](O)[C@H]3N)O[C@@H]2CO)[C@H](N)[C@@H](O)[C@@H]1O,5718,<1.56 µg/mL

For reference, 3 entries again:

compound	strain	result
NC[C@@H]1O[C@H](O[C@H]2[C@@H](O)[C@H](O[C@@H]3[C@@H](O)[C@H](N)C[C@H](N)[C@H]3O[C@H]3O[C@H](CO)[C@@H](O)C[C@H]3N)O[C@@H]2CO)[C@H](N)[C@@H](O)[C@@H]1O[C@H]1O[C@H](CO)[C@@H](O)[C@H](O)[C@@H]1O	Isolate 122	50 µg/mL
c1ccc(CCSc2nc3ccccc3[nH]2)cc1	MY330/88	>62 µM
CO[C@H]1/C=C/O[C@@]2(C)Oc3c(C)c(O)c4c(O)c(c(/C=N/N5CCN(C/C=C/c6ccccc6)CC5)c(O)c4c3C2=O)NC(=O)/C(C)=C\C=C\[C@H](C)[C@H](O)[C@@H](C)[C@@H](O)[C@@H](C)[C@H](OC(C)=O)[C@@H]1C	CH3	0.25 µg/mL